Reference: PMC3444823
pEC50: −log10 of the molar value.

How the values were obtained:
Assay in all cases: ELISA
[1] = target: single-chain fusion protein of CD4i antibody domain m36.4 with gp120MS (human | HIV-1 (clade A isolate))
[2] = target: single-chain fusion protein of CD4i antibody domain m36.4 with gp120SC (human | HIV-1 (clade B isolate))
[3] = target: single-chain fusion protein of CD4i antibody domain m36.4 with gp140SC (human | HIV-1 (clade B isolate))

**Q.** “Fc-fusion protein of sCD4 (from UniProt P01730) (Fc fusion)” was tested. Which fold better binding than gp120MS [1] did it give?
**A.** The fold better binding than gp120MS was 3 fold.

**Q.** What about the pEC50 [2] of the same substance?
**A.** The pEC50 was 8.70.

**Q.** What about the fold better binding than gp140SC [3] of the same substance?
**A.** Its fold better binding than gp140SC is 3 fold.
